# Laboratory results reported in PubChem BioAssay AID588501 (NMMLSC, 2011).
# Chains of the proteins cited; added tags and fusions are not shown.
# UniProt P15917, whole entry, looked up: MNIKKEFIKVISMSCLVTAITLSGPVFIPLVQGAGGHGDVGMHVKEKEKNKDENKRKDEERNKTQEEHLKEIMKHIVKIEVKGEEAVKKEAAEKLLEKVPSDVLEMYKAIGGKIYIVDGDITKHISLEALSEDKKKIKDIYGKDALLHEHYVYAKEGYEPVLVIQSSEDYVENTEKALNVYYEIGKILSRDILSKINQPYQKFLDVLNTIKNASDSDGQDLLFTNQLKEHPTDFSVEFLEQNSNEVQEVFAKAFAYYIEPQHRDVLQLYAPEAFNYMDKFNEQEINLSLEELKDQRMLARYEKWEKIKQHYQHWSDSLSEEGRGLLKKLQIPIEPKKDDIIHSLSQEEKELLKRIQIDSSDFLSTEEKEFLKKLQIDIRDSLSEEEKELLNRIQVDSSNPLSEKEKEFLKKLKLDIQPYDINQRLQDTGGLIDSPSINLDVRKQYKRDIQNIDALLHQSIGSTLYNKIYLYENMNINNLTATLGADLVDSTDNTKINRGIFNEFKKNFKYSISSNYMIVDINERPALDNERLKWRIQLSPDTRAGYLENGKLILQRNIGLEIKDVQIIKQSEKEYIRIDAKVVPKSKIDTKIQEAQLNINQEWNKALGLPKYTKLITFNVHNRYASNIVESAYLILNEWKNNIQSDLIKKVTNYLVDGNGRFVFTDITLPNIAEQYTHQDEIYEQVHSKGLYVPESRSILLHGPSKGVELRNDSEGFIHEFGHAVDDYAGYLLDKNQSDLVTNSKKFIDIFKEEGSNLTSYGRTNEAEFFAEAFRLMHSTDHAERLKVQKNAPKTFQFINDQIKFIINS
# The entries are a selection whose mix differs from that of the whole data set. Activity calls are given as the source filed them. Cut-off read from the data, not from the text of the source: active = inhibition above about 30%; inconclusive = no clear call, values can overlap the other calls; inactive = below that.
# Biological target: Lethal factor (Bacillus anthracis) (UniProt P15917)
# Experiment: Bacillus anthracis LF protease inhibitors, primary screen, biochemical, multiplex microsphere, MLPCN library (AID 588501); note: plate controls were buffer without enzyme for full effect and enzyme alone for no effect
# Conditions: multiplex microsphere protease cleavage assay, at 10 µM, hits give high values
row,Structure (SMILES),inhibition
1,c1nnnn1CCn1cnnn1,inactive: -1.1%
2,CC(C)C(=O)NC(Sc1ccccc1)C(Cl)(Cl)Cl (configuration not stated),inactive: 0.2%
3,O=P(Nc1nccs1)(c1ccccc1)c1ccccc1,inactive: -2.8%
4,O=P(Nc1nc2ccccc2s1)(c1ccccc1)c1ccccc1,inactive: 1.4%
5,C[C@H]1OP(=O)(Oc2ccccc2)[C@H](O)[C@H](O)[C@H]1N=[N+]=[N-] (some centres not stated),inactive: -0.7%
6,Nc1ccc(CCCCOc2ccccc2)cc1,inactive: -10.3%
7,COc1ccc(N)c([N+](=O)[O-])c1[N+](=O)[O-],inactive: -8.4%
8,O=P(Nc1ccccn1)(c1ccc(Br)cc1)c1ccc(Br)cc1,inactive: -5.1%
9,Nc1ccc([As](=O)(O)c2ccc([N+](=O)[O-])cc2)cc1,inactive: -8%
10,C(Cc1nn[nH]n1)Cc1nn[nH]n1,inactive: 2.1%
11,O=C(OC1CN2CCC1CC2)c1cccc(Cl)c1 (configuration not stated),inactive: 1.7%
12,O=[N+]([O-])c1ccc(O)c(/C=N/Nc2ccc([N+](=O)[O-])cc2[N+](=O)[O-])c1,inactive: -1.2%
13,CC(=O)NC(SC(=S)N(C)C)C(Cl)(Cl)Cl (configuration not stated),inactive: -2.9%
14,O=[N+]([O-])c1ncn(CCn2cnc([N+](=O)[O-])n2)n1,inactive: 2.8%
15,O=[As](O)(c1ccccc1)c1ccc(O)cc1,inactive: -12.1%
16,O=P1(N(CCCl)CCCl)OCCC2CCCCN21 (configuration not stated),inactive: -4.3%
17,CCNC(=S)/N=C(\N)N[N+](=O)[O-],inactive: 3.1%
18,O=C(NC1CCS(=O)(=O)C1)NP(=S)(Oc1ccccc1)Oc1ccccc1 (configuration not stated),inactive: 3.8%
19,c1ccc(-c2nn[nH]n2)c(-c2nn[nH]n2)c1,inactive: -3.3%
20,CC(NC(=O)COC(=O)C(O)(c1ccccc1)c1ccccc1)c1ccccc1 (configuration not stated),inactive: -0.3%
21,CN(C)C(=O)Oc1noc2ccccc12,inactive: 10.5%
22,O=c1c2cc([N+](=O)[O-])ccc2[nH]c2c([N+](=O)[O-])cc([N+](=O)[O-])cc12,inactive: -5%
23,COC(=O)c1cc2c(s1)N=C(c1ccccc1)N(C)P2(=O)N1CCOCC1 (configuration not stated),inactive: 2.4%

row,Structure (SMILES),inhibition
1,CC(=O)NC(SC(=S)N(CC(C)C)CC(C)C)C(Cl)(Cl)Cl (configuration not stated),inactive: -1.7%
2,Cc1ccc(OP(=O)(Nc2ccccn2)Oc2ccc(C)cc2)cc1,inactive: -0.6%
3,O=C(OC1CN2CCC1CC2)c1ccccc1 (configuration not stated),inactive: -4.9%
4,CCC(=O)N1C2C3N(C(=O)CC)C1C1N(C(=O)CC)C(C(N1C(=O)CC)N3C(=O)CC)N2C(=O)CC,inactive: 0.5%
5,CCc1cc(O)c([N+](=O)[O-])c(C)c1[N+](=O)[O-],inactive: -4.4%
6,CC(C)(C)C(=O)NC(Sc1ccccc1)C(Cl)(Cl)Cl (configuration not stated),inactive: 1%
7,O=P1(Nc2nc3ccc(Cl)cc3s2)COc2ccccc2O1 (configuration not stated),inactive: 7.8%
8,CCOc1ccc(C2=NCC(CBr)S2)cc1 (configuration not stated),inactive: -6.4%
9,CC(=O)Nc1ccc([As](=O)(O)O)c(O)c1,inactive: -4.7%
10,CC(=O)Nc1ccc(Oc2c([N+](=O)[O-])cc([N+](=O)[O-])cc2[N+](=O)[O-])cc1,inactive: -3.1%
11,N#C/C(=C\c1ccc(N(CCBr)CCBr)cc1)C(N)=O,inactive: 2.6%
12,CC(=O)c1ccc(N2CC2c2ccncc2)cc1 (configuration not stated),inactive: -6%
13,COC(=O)C1(C)COP(=O)(NCc2ccccc2)OC1 (configuration not stated),inactive: 0.7%
14,Cc1ccccc1CN(C)C(=O)COC(=O)C(O)(c1ccccc1)c1ccccc1,inactive: 1%
15,C[C@@H]1C=CCP(=O)(Oc2ccccc2)O1 (some centres not stated),inactive: 0.9%
16,C[C@H]1OP(=O)(Oc2ccccc2)C[C@@H]2O[C@@H]21 (some centres not stated),inactive: -7.6%
17,COc1ccccc1OP(=O)(Nc1ccc(C)cn1)Oc1ccccc1OC,inactive: -1.8%
18,Cc1ccc(OP(=O)(Nc2nccs2)Oc2ccc(C)cc2)cc1,inactive: -0.4%
19,Clc1ccc(Cl)c(NC2=NCC(CBr)S2)c1 (configuration not stated),inactive: -4.1%
20,CN1CCCC(OC(=O)C(c2ccccc2)c2ccccc2)C1 (configuration not stated),inactive: 2.8%
21,NC(=O)c1cc([N+](=O)[O-])cc([N+](=O)[O-])c1N,inactive: -0.3%
22,CN(C(=O)Cc1ccc(Cl)c(Cl)c1)[C@H]1CCCC[C@H]1N1CCCC1,inactive: -4.3%
23,Cc1ccc(N/C(=N/P(=O)(N2CCOCC2)N2CCOCC2)N2CCOCC2)cc1,inactive: -6%

row,Structure (SMILES),inhibition
1,O=[N+]([O-])C1C(O)C(O)C([N+](=O)[O-])C(O)C1O (configuration not stated),inactive: -2.3%
2,CC(C)CC(=O)NC(Sc1ccc(Cl)cc1)C(Cl)(Cl)Cl (configuration not stated),inactive: -2.5%
3,Nc1cc(N)c2nonc2c1[N+](=O)[O-],inactive: 4.6%
4,Oc1ccccc1CNc1ccccn1,inactive: 5.2%
5,O=C(NC(Sc1ccncn1)C(Cl)(Cl)Cl)c1ccccc1 (configuration not stated),inactive: -4%
6,CCOP(=O)(Nc1ccccc1)OCC,inactive: -0.2%
7,Cc1cc(SC(NC(=O)c2ccc(F)cc2)C(Cl)(Cl)Cl)ncn1 (configuration not stated),inactive: -1.5%
8,Cc1ccc(NP(=O)(Oc2ccccc2F)Oc2ccccc2F)nc1,inactive: -2%
9,CN(C(=O)Cc1ccc(Cl)c(Cl)c1)[C@H]1CCCC[C@@H]1N1CCCC1,inactive: -3.4%
10,O=C(O)c1ccccc1[As](=O)(O)O,inactive: -7.4%
11,CC(=O)Nc1ccc([As](=O)(O)O)cc1,inactive: -2.6%
12,CCCC1OP(N)(=O)OCC1CC (configuration not stated),inactive: 0.8%
13,CN(C)P(=O)(N(C)C)n1c(Nc2ccccc2)nnc1-c1ccccc1,inactive: -1.5%
14,O=P(Nc1nc2ccc(Cl)cc2s1)(c1ccccc1)c1ccccc1,inactive: -3.7%
15,CCN(N=Nc1nonc1N)c1nonc1N,inactive: 3.1%
16,Nc1cccc2ccc([As](=O)(O)O)cc12,inactive: -2.4%
17,O=C(Nc1cc([As](=O)(O)O)ccc1O)c1ccccc1,inactive: 8.4%
18,O=P1(N(CCCl)CCCl)OCCCS1 (configuration not stated),inactive: -2.9%
19,O=[N+]([O-])c1cccc(NC2=NCC(CBr)S2)c1 (configuration not stated),inactive: -2.6%
20,COC(=O)C1(C)COP(=O)(Nc2ccccc2)OC1 (configuration not stated),inactive: -1.4%
21,O=C(O)CNc1ccc([As](=O)(O)O)cc1,inactive: -6.1%
